PubChem BioAssay AID1259414, Drosophila RNAi Screening Center – 2018

- Purpose: 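Fly genes that alter Wolbachia amount inside host cells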 (primary screen)
- System: Drosophila JW18 cells infected with Wolbachia
- Reagents: long dsRNA against Drosophila genes, 0.25 µg dsRNA per well of a 384-well plate
- Timing: 5 days
- Conditions: cells persistently infected with Wolbachia before knock-down; no added drug
- Read-out: 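Imaged fluorescence in situ signal for Wolbachia 23S rRNA per DAPI-counted host cell, given as a robust z-score within each plate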
- Reading the numbers: Wolbachia per cell robust z: higher = more Wolbachia per host cell than the plate typical
- Rule for the call: 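Active if absolute robust z reaches 1.5 in two or more of three replicates, leaving out multi- or no-target dsRNAs, genes unexpressed in JW18 and A1 wells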
The deposit covers about 24,000 reagents; below is a random part of those that have a named target and a result. Over the whole deposit, about 1,210 (5%) were called active. 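Inactive calls also include excluded dsRNAs with several or no targets, genes unexpressed in JW18, and well A1, regardless of score.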 Reagents against one gene are numbered here. A plus sign joins genes that one reagent is predicted to hit. No sequences are given here.

With knock-down of CG44000 + CG33995 + CG44001, the screen gave Wolbachia per cell robust z, rep 1 = 1.01; Wolbachia per cell robust z, rep 2 = -0.397; Wolbachia per cell robust z, rep 3 = -1.21; inactive.
Silencing of Tl (Toll) #1 came out at: Wolbachia per cell robust z, rep 1 = 0.89; Wolbachia per cell robust z, rep 2 = 0.804; Wolbachia per cell robust z, rep 3 = 0.865; inactive.
Tl (Toll) #2 gave Wolbachia per cell robust z, rep 1 = -0.924; Wolbachia per cell robust z, rep 2 = -0.561; Wolbachia per cell robust z, rep 3 = -0.454; inactive.
After knock-down of Ir60e (Ionotropic receptor 60e), the screen gave Wolbachia per cell robust z, rep 1 = -1.34; Wolbachia per cell robust z, rep 2 = 1.28; Wolbachia per cell robust z, rep 3 = -0.385; inactive.
Against CG13177 #1 the deposit lists Wolbachia per cell robust z, rep 1 = -0.306; Wolbachia per cell robust z, rep 2 = 0.102; Wolbachia per cell robust z, rep 3 = 0.799; inactive.
Knock-down of CG13177 #2 came out at: Wolbachia per cell robust z, rep 1 = -3.56; Wolbachia per cell robust z, rep 2 = -0.485; Wolbachia per cell robust z, rep 3 = -2.51; active.
Silencing of sev (sevenless) #1 gave: Wolbachia per cell robust z, rep 1 = 0.0313; Wolbachia per cell robust z, rep 2 = 0.28; Wolbachia per cell robust z, rep 3 = 0.547; inactive.
After knock-down of sev (sevenless) #2 the results were Wolbachia per cell robust z, rep 1 = -2.11; Wolbachia per cell robust z, rep 2 = -4.75; Wolbachia per cell robust z, rep 3 = -0.176; inactive.
For CG2082 #1, the entry reads Wolbachia per cell robust z, rep 1 = -2.15; Wolbachia per cell robust z, rep 2 = -0.548; Wolbachia per cell robust z, rep 3 = 0.345; inactive.
After knock-down of CG2082 #2, the record shows Wolbachia per cell robust z, rep 1 = 0.628; Wolbachia per cell robust z, rep 2 = 0.511; Wolbachia per cell robust z, rep 3 = -1.33; inactive.
Against lncRNA:CR40053 (long non-coding RNA:CR40053) #1, the values are Wolbachia per cell robust z, rep 1 = 0.395; Wolbachia per cell robust z, rep 2 = -0.224; Wolbachia per cell robust z, rep 3 = 0.317; inactive.
Depletion of lncRNA:CR40053 (long non-coding RNA:CR40053) #2 resulted in: Wolbachia per cell robust z, rep 1 = -0.536; Wolbachia per cell robust z, rep 2 = -0.909; Wolbachia per cell robust z, rep 3 = -1.33; inactive.
Silencing of lncRNA:CR40053 (long non-coding RNA:CR40053) #3 gave: Wolbachia per cell robust z, rep 1 = -0.0614; Wolbachia per cell robust z, rep 2 = 0.519; Wolbachia per cell robust z, rep 3 = -0.327; inactive.

An excerpt of the results above, as a working copy:
CG2082 #1 | Wolbachia per cell robust z, rep 1 = -2.15; Wolbachia per cell robust z, rep 2 = -0.548; Wolbachia per cell robust z, rep 3 = 0.345; Outcome = inactive
CG2082 #2 | Wolbachia per cell robust z, rep 1 = 0.628; Wolbachia per cell robust z, rep 2 = 0.511; Wolbachia per cell robust z, rep 3 = -1.33; Outcome = inactive
